Pooled drug test results. Numbers come from NIAID ChemDB, via PubChem.

Shared fields: target-level tests

a–b is a range or a potency band.

compound,target,dose,organism,read-out,value
NC(C(=O)Nc1ccsc1-c1nc(C(=O)O)c(O)c(=O)[nH]1)c1ccc2ccccc2c1,HCV polymerase,,Hepatitis C virus,IC50,<25 µM
O=C(O)C[C@H](Cc1ccccc1)NC(=O)c1cnn2c(C3CCCCC3)c(-c3ccc(F)cc3F)cnc12,RNA-dependent RNA polymerase,,Hepatitis C virus,IC50,1–10 µM
COC(=O)c1nc(-c2ccc(OCc3c(Cl)sc4ccc(Cl)cc34)cc2)[nH]c(=O)c1O,HCV polymerase,,Hepatitis C virus,IC50,<50 µM
CC[C@@H](C=O)NC(=O)[C@@H]1C[C@@H](OCc2cccc(Oc3ccccc3)c2)CN1C(=O)[C@@H](NC(=O)[C@@H](NC(=O)c1cnccn1)C(C)C)C(C)C,NS3 protease,,Hepatitis C virus,Ki,1–100 µM
N#Cc1cnn2c(-c3cccc(Oc4ccccc4)c3)c(-c3ccccc3)cnc12,RNA-dependent RNA polymerase,,Hepatitis C virus,IC50,>10 µM
CCNc1cc2oc(-c3ccc(F)cc3)c(C(=O)NC)c2cc1OCCCOCC,Nonstructural protein 5B,,Hepatitis C virus,IC50,≤0.5 µM
CCC(=O)N[C@H](C(=O)N1C[C@H](OCc2ccccc2)C[C@H]1C(=O)N[C@H](C=O)CC)C(C)C,NS3 protease,,Hepatitis C virus,Ki,>100 µM
N[C@H](Cc1ccccc1)C(=O)Nc1ccsc1-c1nc(C(=O)O)c(O)c(=O)[nH]1,HCV polymerase,,Hepatitis C virus,IC50,<25 µM
COc1nc(NCCCN2CCOCC2)nc(Nc2ccc3[nH]ncc3c2)n1,DNA polymerase,,Hepatitis B virus,IC50,0.1–1 µg/mL
CNC(=O)c1c(-c2ccc(F)cc2)oc2cc(C3CCCN3C(N)=O)c(OC)cc12,Nonstructural protein 5B,,Hepatitis C virus,IC50,≤0.5 µM
CC(NC(=O)c1ccc2c(c1)nc(-c1ccc3nc(-c4ccccc4)cnc3c1)n2C1CCCCC1)C(=O)O,NS5B polymerase,100 µM,Hepatitis C virus,inhibition,98.33%
Cc1ccccc1S(=O)(=O)Nc1cc(-c2cnn(S(=O)(=O)N(C)C)c2)sc1C(=O)O,NS3 ATPase,,Hepatitis C virus,IC50,5–20 µM
COc1nc(Nc2ccc3[nH]ncc3c2)nc(N2CCC(O)CC2)n1,DNA polymerase,0.01 µg/mL,Hepatitis B virus,inhibition,25%
O=C(Nc1ccccc1-c1nc(C(=O)O)c(O)c(=O)[nH]1)OCc1ccccc1,HCV polymerase,,Hepatitis C virus,IC50,<100 µM
COc1nc(Nc2ccc3cn[nH]c3c2)nc(N2CCCC2)n1,DNA polymerase,0.01 µg/mL,Hepatitis B virus,inhibition,9%
O=C(O)c1cc2nc(-c3ccco3)c(C3CCCCC3)c(=O)n2[nH]1,RNA-dependent RNA polymerase,,Hepatitis C virus,IC50,1–10 µM
COc1ccc(-c2cccc(C)c2)c(-c2ccc3cc(-c4nc5cc(C(=O)O)ccc5n4C4CCCCC4)ccc3n2)c1,NS5B polymerase,100 µM,Hepatitis C virus,inhibition,101%
CNC(=O)C1CCN(c2nc(Nc3ccc4[nH]ncc4c3)nc(OC)n2)CC1,DNA polymerase,,Hepatitis B virus,IC50,>1 µg/mL
CNC(=O)c1c(-c2ccc(F)cc2)oc2cc(NCc3ccoc3)c(OC(C)C)cc12,Nonstructural protein 5B,,Hepatitis C virus,IC50,≤0.5 µM
COc1ccc(-c2ccc(Cl)cc2)c(-c2ccc3cc(-c4nc5cc(C(=O)O)ccc5n4CC4CCCO4)ccc3n2)c1,NS5B polymerase,100 µM,Hepatitis C virus,inhibition,100%
Cc1cccc(CN(C(=O)CC2CCCC2)c2cc(-c3ccccc3)sc2C(=O)O)c1,NS3 ATPase,,Hepatitis C virus,IC50,<5 µM
CC[C@@H](C=O)NC(=O)[C@H](CC(C)C)NC(=O)[C@@H](NC(=O)[C@@H](NC(=O)CCN1CCOCC1)C(C)C)C(C)C,NS3 protease,,Hepatitis C virus,Ki,1–100 µM
CCOC(=O)c1cccc(-c2cc(NS(=O)(=O)c3ccccc3C)c(C(=O)O)s2)c1,NS3 ATPase,,Hepatitis C virus,IC50,5–20 µM
O=C(O)c1cnn2c(-c3cccc(-c4cccc(Cl)c4)c3)ccnc12,RNA-dependent RNA polymerase,,Hepatitis C virus,IC50,1–10 µM
CC[C@@H](C=O)NC(=O)[C@@H]1C[C@@H](OCc2ccccc2)CN1C(=O)[C@@H](NC(=O)c1c(O)ccc2ccccc12)C(C)C,NS3 protease,,Hepatitis C virus,Ki,1–100 µM
O=C(O)c1ccc2c(c1)nc(-c1ccc3nc(-c4ccc[nH]4)ccc3c1)n2C1CCCCC1,NS5B polymerase,100 µM,Hepatitis C virus,inhibition,99.7%
CC[C@H](NC(=O)[C@H](CC(C)C)NC(=O)[C@@H](NC(=O)[C@@H](NC(=O)[C@H](CC(=O)O)CC(=O)[C@H](CCC(=O)O)NC(C)=O)C(C)C)C(C)C)C(=O)C(=O)NCc1ccncc1,NS3 protease,,Hepatitis C virus,Ki,<1 µM
COc1nc(NCCO)nc(Nc2ccc3cn[nH]c3c2)n1,DNA polymerase,,Hepatitis B virus,IC50,0.1–1 µg/mL
O=C(O)c1nc(-c2sccc2Br)[nH]c(=O)c1O,HCV polymerase,,Hepatitis C virus,IC50,<25 µM
CC[C@@H](C=O)NC(=O)[C@@H]1C[C@@H](OC(=O)Nc2ccccc2OC)CN1C(=O)[C@@H](NC(=O)[C@@H](NC(=O)c1cnccn1)C(C)C)C(C)C,NS3 protease,,Hepatitis C virus,Ki,1–100 µM
COc1nc(Nc2ccc3[nH]ncc3c2)nc(N2CCN(C(=O)c3cccnc3)CC2)n1,DNA polymerase,0.01 µg/mL,Hepatitis B virus,inhibition,11%
Cc1ccc(C(=O)N(c2cc(-c3ccccc3)sc2C(=O)O)C(C)C)c(O)c1,NS3 ATPase,,Hepatitis C virus,IC50,5–20 µM
CC[C@@H](C=O)NC(=O)[C@H](CC(C)C)NC(=O)[C@@H](NC(=O)[C@@H](NC(=O)c1ccc(N(C)C)cc1)C(C)C)C(C)C,NS3 protease,,Hepatitis C virus,Ki,1–100 µM
O=C(O)c1cc2ncc(-c3ccccc3)c(-c3ccc(OCc4ccccc4)cc3)n2n1,RNA-dependent RNA polymerase,,Hepatitis C virus,IC50,>10 µM
COc1nc(Nc2ccc3[nH]ncc3c2)nc(N2CCOCC2)n1,DNA polymerase,1 µg/mL,Hepatitis B virus,inhibition,56%
Cc1cc(C)c(C(=O)N(c2cc(-c3ccccc3)sc2C(=O)O)C(C)C)c(C)c1,NS3 ATPase,,Hepatitis C virus,IC50,5–20 µM
CNC(=O)c1c(-c2ccc(F)c(C)c2)oc2ccc(OC)cc12,Nonstructural protein 5B,,Hepatitis C virus,IC50,≤0.5 µM
COc1cccc(-c2nc3ccc(-c4nc5cc(C(=O)O)ccc5n4C4CCCCC4)cc3nc2-c2cccc(OC)c2)c1,NS5B polymerase,33 µM,Hepatitis C virus,inhibition,96.17%
CC(C)(C)OC(=O)NCc1ccccc1COC(=O)Nc1ccsc1-c1nc(C(=O)O)c(O)c(=O)[nH]1,HCV polymerase,,Hepatitis C virus,IC50,<25 µM
COc1nc(Nc2ccc3cn[nH]c3c2)nc(NC2CC2)n1,Nonstructural protein 5B,1 µg/mL,Hepatitis C virus,inhibition,54%
O=C(Nc1ocnc1-c1nc(C(=O)O)c(O)c(=O)[nH]1)c1ccccc1,HCV polymerase,,Hepatitis C virus,IC50,<100 µM
O=C(O)c1ccc2c(c1)nc(-c1ccc3nc(-c4cc(OCCCN5CCCC5)ccc4-c4ccc(Cl)cc4)ccc3c1)n2C1CCCCC1,NS5B polymerase,33 µM,Hepatitis C virus,inhibition,97.83%
CCOC(=O)C1=CN(N2CCN(c3nc(Nc4ccc5[nH]ncc5c4)nc(OC)n3)CC2)C(SC)N=C1,Nonstructural protein 5B,1 µg/mL,Hepatitis C virus,inhibition,18%
CC[C@H](NC(=O)[C@H](CC(C)C)NC(=O)[C@@H](NC(=O)[C@@H](NC(=O)[C@H](CC(=O)O)CC(=O)[C@H](CCC(=O)O)NC(C)=O)C(C)C)C(C)C)C(=O)C(=O)NCC1CCCO1,NS3 protease,,Hepatitis C virus,Ki,<1 µM
Cc1ccc(C(=O)N(c2cc(-c3cccc(C)c3)sc2C(=O)O)C(C)C)cc1,NS3 ATPase,,Hepatitis C virus,IC50,<5 µM
CNC(=O)c1c(-c2ccc(F)cc2)oc2cc(N3CCOCC3)c(OCc3nccs3)cc12,Nonstructural protein 5B,,Hepatitis C virus,IC50,≤0.5 µM
CCN(C(=O)C1CCCC1)c1cc(-c2ccccc2)sc1C(=O)O,NS3 ATPase,,Hepatitis C virus,IC50,5–20 µM
O=C(Nc1ccsc1-c1nc(C(=O)O)c(O)c(=O)[nH]1)c1cc(OCc2ccccc2)cs1,HCV polymerase,,Hepatitis C virus,IC50,<25 µM
CNC(=O)c1c(-c2ccc(F)cc2)oc2cc(N(C)S(C)(=O)=O)c(Oc3nc(CCl)ns3)cc12,Nonstructural protein 5B,,Hepatitis C virus,IC50,≤0.5 µM
Cc1ccc(C(=O)N(C)c2cc(-c3ccccc3C)sc2C(=O)O)cc1,NS3 ATPase,,Hepatitis C virus,IC50,<5 µM

ICn: concentration for n% inhibition. Percent inhibition refers to the dose given; in toxicity tests it is the harm to the cells. An empty or dashed field is not shown. Neighbouring rows are from separate reports.